Here are results for 2 compounds from PubChem BioAssay (NCATS).

In one assay the test system is AS120. In words: qHTS profiling for inhibitors of Plasmodium falciparum proliferation (AID 504749).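 Note: 0% = DMSO vehicle and full inhibition = artemisinin control; nearly all actives have a fitted effect of over 60% in size.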 The note with it: P. falciparum in erythrocytes, SYBR Green DNA, 72 h; at 28.7 µM (top of the series). A digest of the protocol:
(§1)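 P. falciparum-infected erythrocytes (0.3% parasitemia, 2.5% hematocrit) incubated with compound 72 h at 37 C, 5% CO2. Parasite DNA detected by SYBR Green after lysis, overnight at room temperature; normalised to 0.29 uM artemisinin and DMSO.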
In general terms: Quantitative high-throughput screening tests each substance at several concentrations.

In another assay the test system is TAB109. The assay is described as above. The note with it: P. falciparum in erythrocytes, SYBR Green DNA, 72 h; at 28.7 µM (top of the series). The method in brief:
as §1

Molecules are shown by their SMILES. The list shows a part of the results, in another mix than the full data. Inconclusive results are not listed. Calls of active or inactive are those of the source. Calls come from the whole dose curve; as a rule, active = well fitted inhibition curve with a large enough effect; inconclusive = small, poorly fitted or top-dose-only effect; inactive = flat fitted curve, though single readings scatter.

As to `OCCSCCO`, in the assay with AS120, the activity, negative = inhibition was inactive: 13.7%. Regarding `CN(C)CCS`, in the assay on TAB109, the activity, negative = inhibition was inactive: 15.5%.
